Data set [1] addresses His-CRP (cAMP receptor protein) (UniProt O34015). As to the kind of experiment: EMSA. Particulars: 100 uM cAMP, 50 mM Tris-HCl pH 7.8, 250 mM KCl, 5 mM MgCl2, 2.5 mM EDTA, 0.5 mM MnCl2, 2.5 mM DTT, 1 ug poly(dI.dC), 10 ul, room temperature 30 min, recombinant protein, protein details: 6xHis, label: 5' biotin, probe letters rebuilt from the primers and the genome.
Data set [2] has the same target. The data set is described as follows: competition with a labelled probe. Particulars: 100 uM cAMP, 100-fold excess partial, 300-fold abolishes shift of labelled 152-bp probe, 50 mM Tris-HCl pH 7.8, 250 mM KCl, 5 mM MgCl2, 2.5 mM EDTA, 0.5 mM MnCl2, 2.5 mM DTT, 1 ug poly(dI.dC), 10 ul, room temperature 30 min, recombinant protein, protein details: 6xHis, probe letters rebuilt from the primers and the genome.

The exact form of at least one protein or probe is not confirmed.

On to “GGTTTAAGTATAGAGGAGCAACAAAAAATTGACGATGTGATACTGGTCTCATAATCTGGCGCAAAAGTATTGCAT (double strand) [probe-CBS1 75 bp]”, for which, in data set [1] (single shifted band at 0.11 uM CRP), the binding result is recorded as “binds”.
For “GTTCGTATGAGCTTGCTTGTTTTATGAAGCTAATGATAGTTTACGAAGAGAAATAAGTCTGGACTTATCTCACATCGATGCAATACTTTTGCGCCAGATTATGAGACCAGTATCACATCGTCAATTTTTTGTTGCTCCTCTATACTTAAACC (double strand) [tfoXVC promoter 152-bp probe (CBS1+CBS2)]”, the binding result in data set [1] (shift at 0.11 uM CRP, second higher shift >0.88 uM) is “binds”.
Regarding “GTTCGTATGAGCTTGCTTGTTTTATGAAGCTAATGATAGTTTACGAAGAGAAATAAGTCTGGACTTATCTCACATCGATGCAATACTTTTGCGCCAGATTATGAGACCAGTATCACATCGTCAATTTTTTGTTGCTCCTCTATACTTAAACC (double strand) [tfoXVC promoter 152-bp unlabelled competitor]”, the binding result in data set [2] is recorded as “binds”.

The record behind these values is publication PMC4595672.
